Measured values from several laboratories, pooled; numbers as filed in NIAID ChemDB.

Common to all: tests in culture; species: Candida albicans

Blank or dashed fields: not listed here.

compound	strain or isolate	changes	method	endpoint	dose	value
CC(C)OC(=O)c1ccc(C[N+]2=C(c3ccc(F)cc3F)c3cc4c(cc3CC2)OCO4)cc1.[Br-]	Clinical isolate	Fluconazole-resistant	broth dilution	MIC80		>64 µg/mL
OC(Cn1cncn1)(Cn1cncn1)c1ccc(F)cc1F	YL 351		broth dilution	MIC		512 µg/mL
Cc1c(N2CCC3CNCC32)c(F)cn2c(=O)c(C(=O)O)cc(C3CC3)c12	CCH442			MIC		>100 µg/mL
Cc1c(N2C[C@@H](C)N[C@@H](C)C2)c(F)cn2c(=O)c(C(=O)O)cc(C3CC3)c12.Cl	CCH442			MIC		>100 µg/mL
Cc1c(N2CC[C@@H](N(C)C)C2)c(F)cn2c(=O)c(C(=O)O)cc(C3CC3)c12	CCH442			MIC		>100 µg/mL
Cc1c(N)nc([C@H](CC(N)=O)NC[C@H](N)C(N)=O)nc1C(=O)N[C@H](C(=O)N[C@H](C)[C@@H](O)[C@H](C)C(=O)N[C@H](C(=O)NCCc1nc(-c2nc(C(=O)NCCC[S+](C)C)cs2)cs1)[C@@H](C)O)C(O[C@@H]1O[C@@H](CO)[C@@H](O)[C@H](O)[C@@H]1O[C@H]1O[C@H](CO)[C@@H](O)[C@H](OC(N)=O)[C@@H]1O)c1cnc[nH]1	Isolate 94-104			MLC		12.5 µg/mL
Clc1ccccc1C(c1ccccc1)(c1ccccc1)n1ccnc1				MIC95		6.25 µg/mL
C[C@@H]([C@H]1CC[C@H](C)C(=O)C1)[C@H]1CC[C@]2(C)C3=C(CC[C@@]12C)[C@]1(C)CC[C@H](O)C(C)(C)[C@H]1CC3	MTCC 183		agar diffusion / agar	zone	5 µg/disc	26 mm
Cc1c(N2CCC[C@@H]2CN)c(F)cn2c(=O)c(C(=O)O)cc(C3CC3)c12	CCH442			MIC		>100 µg/mL
COc1cc(C[C@H](C)[C@H](C)Cc2ccc(O)c(O)c2)ccc1O	CCC 127-2000		broth dilution	MIC50		31.25 µg/mL
Cc1c(N2CCCC(C(N)=O)C2)c(F)cn2c(=O)c(C(=O)O)cc(C3CC3)c12	CCH442			MIC		>100 µg/mL
CN(C/C=C/C#CC(C)(C)C)Cc1cccc2ccccc12	CI_5			MIC50		4 µg/mL
Cc1c(N2CC3CCC(N)C3C2)c(F)cn2c(=O)c(C(=O)O)cc(C3CC3)c12.Cl	CCH442			MIC		>100 µg/mL
CNCC1CN(c2c(F)cn3c(=O)c(C(=O)O)cc(C4CC4)c3c2C)CCO1.Cl	CCH442			MIC		>100 µg/mL
C(/C=C/c1ccccc1)=NCCNCCN=C/C=C/c1ccccc1.N#C[S][Hg][S]C#N			agar diffusion	zone	20000 µg/mL	26 mm
O=C(Cc1ccccc1)NCCc1ccc2c(c1)OCO2	Clinical isolate	Fluconazole-resistant	broth dilution	MIC80		>64 µg/mL
CC1=C(N2CC3CNCC3C2)C(F)=CN2C(=O)C(C(=O)O)=CC(C3CC3)C12	CCH442			MIC		>100 µg/mL
Cc1c(N2CCCC(N)C2)c(F)cn2c(=O)c(C(=O)O)cc(C3CC3)c12	CCH442			MIC		>100 µg/mL
C[C@@H]1[C@H](O)[C@@H](C)/C=C/C=C/CC/C=C/C=C/C=C/C=C/C(O[C@H]2O[C@H](C)[C@@H](O)[C@H](N)[C@@H]2O)CC2O[C@](O)(CC(O)C(O)CCC(O)CC(O)CC(O)CC(=O)O[C@H]1C)CC(O)C2C(=O)O	LM 42V		broth dilution	MIC100		64 µg/mL
C[C@@H](c1nc(-c2ccc(C#N)cc2)cs1)[C@](O)(Cn1cnnc1)c1ccc(F)cc1F	A28924			MIC		0.25 µg/mL
CCc1cc(C(=O)O)c(=O)n2cc(F)c(N3CCC(N)C3)c(C)c12.Cl	CCH442			MIC		>100 µg/mL
Cc1c(N2C=NCC2)c(F)cn2c(=O)c(C(=O)O)cc(C3CC3)c12.Cl	CCH442			MIC		>100 µg/mL
COc1ccc2c(c1OC)C[N+]1(Cc3cccc(F)c3)CCc3cc4c(cc3C1C2)OCO4.[Br-]	Clinical isolate	Fluconazole-resistant	broth dilution	MIC80		>64 µg/mL
CCO[C@@H]1C[C@@H]([C@H](C)[C@H]2CC[C@]3(C)C4=C(CC[C@@]23C)[C@]2(C)CC[C@H](O)C(C)(C)[C@H]2CC4)CC[C@@H]1C	MTCC 183		agar diffusion / agar	zone	0.2 µg/disc	0 mm
COc1ccc2c(Cc3cccc(Br)c3)c3[n+](cc2c1OC)CCc1cc2c(cc1-3)OCO2.[Br-]	Clinical isolate	Fluconazole-resistant	broth dilution	MIC80		32 µg/mL
Cc1c(N2CCc3ccccc3C2)c(F)cn2c(=O)c(C(=O)O)cc(C3CC3)c12	CCH442			MIC		>100 µg/mL
Cc1c(N2CCCC(N)C2)c(F)cn2c(=O)c(C(=O)O)cc(C3CC3)c12	CCH442			MIC		>100 µg/mL
C(/C=C/c1ccccc1)=NCCNCCN=C/C=C/c1ccccc1.[Br][Hg][Br]			agar diffusion	zone	10000 µg/mL	23 mm
CC[C@@H](NC)[C@@H]1CCN(c2c(F)cn3c(=O)c(C(=O)O)cc(C4CC4)c3c2C)C1.Cl	CCH442			MIC		>100 µg/mL
CC1=[N+](Cc2ccccc2)CCc2cc3c(cc21)OCO3.[Br-]	Clinical isolate	Fluconazole-resistant	broth dilution	MIC80		>64 µg/mL

For reference, 3 entries again:

| compound | strain or isolate | changes | method | endpoint | dose | value |
|---|---|---|---|---|---|---|
| C[C@@H]1[C@H](O)[C@@H](C)/C=C/C=C/CC/C=C/C=C/C=C/C=C/C(O[C@H]2O[C@H](C)[C@@H](O)[C@H](N)[C@@H]2O)CC2O[C@](O)(CC(O)C(O)CCC(O)CC(O)CC(O)CC(=O)O[C@H]1C)CC(O)C2C(=O)O | LM 42V |  | broth dilution | MIC100 |  | 64 µg/mL |
| COc1ccc2c(Cc3cccc(Br)c3)c3[n+](cc2c1OC)CCc1cc2c(cc1-3)OCO2.[Br-] | Clinical isolate | Fluconazole-resistant | broth dilution | MIC80 |  | 32 µg/mL |
| CNCC1CN(c2c(F)cn3c(=O)c(C(=O)O)cc(C4CC4)c3c2C)CCO1.Cl | CCH442 |  |  | MIC |  | >100 µg/mL |

Conditions beyond the fields shown may differ between rows. Zones are inhibition diameters on agar. A number after MIC or MFC names an inhibition level or a share of isolates.